Compound potency records, mixed from different reports. Data source: NIAID ChemDB in PubChem.

Common to all: growth or infection tests; species: Herpes simplex virus 1; cell line: E6SM; endpoint: EC50

Rows are shuffled and stem from different studies.

structure,strain,read by,value
CC(Sc1ncnc2c1cnn2CCCCO)C(N)=O,VWM1837 (TK-),cytopathic effect,>400 µg/mL
CO[C@H](CO)[C@@H](O)CCn1cc(C)c(=O)[nH]c1=O,McIntyre,cytopathic effect,>400 µg/mL
CC=NC(=N)c1nc(-c2cccc(C)c2)n(COCCO)n1,KOS,cytopathic effect,>10 µg/mL
CNc1ncnc2c1cnn2Cc1cn(CCCCO)nn1,VWM1837,,>400 µg/mL
Nc1ccnc(O[C@H]2CO[C@H](CO)[C@@H](O)C2)n1,TK-/TK+ (VMW 1837),cytopathic effect,>20 µg/mL
CC1(C)[C@@H](CCO)C[C@H]1n1cnc2c(=O)[nH]c(N)nc21,TK-/B2006,cytopathic effect,300 µg/mL
Nc1ncnc2c1cnn2Cc1cn(CCCCO)nn1,VWM1837,,>400 µg/mL
C=C(N=CC)c1nc(-c2ccccc2)n(C2O[C@H](CO)[C@@H](O)[C@H](O)[C@H]2O)n1,VMW 1837,cytopathic effect,>200 µg/mL
C=C[C@@H](O)C1=C[C@@H](n2cnc3c(N)ncnc32)[C@H](O)[C@@H]1O,KOS,cytopathic effect,>200 µg/mL
CC1(CO)CCC(Cn2nnc3c(N)ncnc32)C1(C)C,TK-/TK+ (VMW 1837),cytopathic effect,70 µg/mL
Nc1nc2c(ncn2[C@H]2C=C[C@@H](CO)[C@H](O)C2)c(=O)[nH]1,KOS TK- acyclovir-resistant,cytopathic effect,1.28 µg/mL
CC1(CO)CCC(Cc2nc3ncnc(N)c3[nH]2)C1(C)C,KOS,cytopathic effect,>200 µg/mL
C=C(N=CC)c1nc(-c2cccc(C)c2)n(C2O[C@H](CO)[C@@H](O)[C@H](O)[C@H]2O)n1,KOS,cytopathic effect,300 µg/mL
CC[C@H](O)C1=C[C@@H](n2cnc3c(N)ncnc32)[C@H](O)[C@@H]1O,B2006 (TK-),cytopathic effect,>200 µg/mL
Nc1ccn([C@H]2CO[C@H](CO)[C@@H](O)C2)c(=O)n1,KOS,cytopathic effect,7 µg/mL
CC1(C)[C@@H](CCO)C[C@H]1n1cnc2c(N)ncnc21,KOS,cytopathic effect,>400 µg/mL
Nc1ncnc2c1ncn2CC[C@H](O)CCO,F,cytopathic effect,>400 µg/mL
C=C(N=CC)c1nc(-c2cccc(C)c2)n([C@@H]2O[C@H](CO)[C@@H](O)[C@H]2O)n1,VMW 1837,cytopathic effect,300 µg/mL
CCc1cc([C@H]2C[C@H](O)[C@@H](CO)O2)c(F)cc1F,VMW1837 (TK-),cytopathic effect,>400 µg/mL
CC(Sc1ncnc2c1cnn2COCCO)C(N)=O,VWM1837 (TK-),cytopathic effect,>400 µg/mL
CC=NC(=N)c1nc(-c2ccccc2)n(Cc2ccccc2)n1,VMW 1837,cytopathic effect,>4 µg/mL
OC[C@H]1O[C@@H](c2cc(C(O)CBr)c(F)cc2F)C[C@@H]1O,TK-deficient acyclovir-resistant,cytopathic effect,>3.2 µg/mL
OCCCCn1cc(Cn2ncc3c(SCc4ccccc4)ncnc32)nn1,KOS,,>400 µg/mL
NC(=O)CSc1ncnc2c1cnn2COCC(O)CO,B2006 (TK-),cytopathic effect,>400 µg/mL
CO[C@H](CO)[C@@H](O)CCn1cnc2c(=O)[nH]c(N)nc21,B2006 (TK-),cytopathic effect,>400 µg/mL
CC=NC(=N)c1nc(-c2ccc(OC)cc2)n(Cc2ccccc2)n1,KOS,cytopathic effect,>40 µg/mL
CC[C@@H](O)C1=C[C@@H](n2cnc3c(N)ncnc32)[C@H](O)[C@@H]1O,KOS,cytopathic effect,>400 µg/mL
CC1(C)[C@@H](CCO)C[C@H]1n1nnc2c(N)ncnc21,KOS,cytopathic effect,>400 µg/mL
OC[C@H]1O[C@@H](c2cc(C#CBr)c(F)cc2F)C[C@@H]1O,F,cytopathic effect,9.6 µg/mL
Nc1nc2c(ncn2[C@@H]2C=C[C@H](CO)[C@@H](O)C2)c(=O)[nH]1,F,cytopathic effect,0.002 µg/mL
CC1(CO)CCC(Cn2nnc3c(Cl)ncnc32)C1(C)C,TK-/TK+ (VMW 1837),cytopathic effect,40 µg/mL
O=c1[nH]cnc2c1cnn2Cc1cn(CCCCO)nn1,VWM1837,,>400 µg/mL
Nc1ncnc2c1ncn2[C@H]1CO[C@H](CO)[C@@H](O)C1,KOS,cytopathic effect,>20 µg/mL
OC[C@H]1O[C@@H](c2cc(C(O)CI)c(F)cc2F)C[C@@H]1O,KOS (TK-),cytopathic effect,>16 µg/mL
CC=NC(=N)c1nc(-c2ccc(OC)cc2)n(COCCO)n1,VMW 1837,cytopathic effect,>200 µg/mL
CC1(C)[C@@H](CCO)C[C@H]1n1cnc2c(N)nc(N)nc21,TK-/B2006,cytopathic effect,>400 µg/mL
OC[C@H]1O[C@@H](c2cc(/C=C/I)c(F)cc2F)C[C@@H]1O,KOS,cytopathic effect,48 µg/mL
Cc1cn(CC[C@H](O)CCO)c(=O)[nH]c1=O,F,cytopathic effect,>400 µg/mL
CC=NC(=N)c1nc(-c2cccc(OC)c2)n(C/C=C/c2ccccc2)n1,KOS,cytopathic effect,>10 µg/mL
CCC(Sc1ncnc2c1cnn2CCCCO)C(N)=O,KOS,cytopathic effect,>400 µg/mL

Repeating the final 4 entries:

structure,strain,read by,value
OC[C@H]1O[C@@H](c2cc(/C=C/I)c(F)cc2F)C[C@@H]1O,KOS,cytopathic effect,48 µg/mL
Cc1cn(CC[C@H](O)CCO)c(=O)[nH]c1=O,F,cytopathic effect,>400 µg/mL
CC=NC(=N)c1nc(-c2cccc(OC)c2)n(C/C=C/c2ccccc2)n1,KOS,cytopathic effect,>10 µg/mL
CCC(Sc1ncnc2c1cnn2CCCCO)C(N)=O,KOS,cytopathic effect,>400 µg/mL

Blank or dashed fields: not listed here. ECn is the concentration giving n% inhibition of infection, replication or growth.